Results deposited as PubChem BioAssay AID624099 (ICCB-Longwood, 2012).
The deposit covers about 21,000 reagents; shown is a part drawn at random. 497 of all reagents (2.4%) were called active. 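Higher z means weaker E2 silencing; only reporter increases were scored, and knock-downs that hurt cell survival may mask genuine repressor factors.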 Entries without a mark were called inactive.

- Assay: 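Knock-downs relieving repression by E2 of an HPV18 LCR luciferase reporter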 (primary screen)
- Cell system: human C33A cervical carcinoma cells (HPV-negative) stably expressing BPV1 E2 and an HPV18 LCR luciferase reporter
- Reagents: siRNA pool against human genes, 40 nM
- Time to read-out: 72 h
- Detection: 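HPV18 LCR reporter light per well, converted to plate-wise z-scores that exclude control wells, and averaged over triplicate plates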
- Scale: mean z-score and z-score: higher = stronger reporter signal, weaker E2 silencing
- Hit rule: 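Mean z ≥ 2 together with z ≥ 2 in two or more of the three replicates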

gene | mean z-score | z-score, replicate A | z-score, replicate B | z-score, replicate C
TAS1R3 | 0.76 | 0.96 | 0.67 | 0.65
SLC7A9 | 1.02 | 0.81 | 0.91 | 1.33
PRR25 | 0.82 | 0.91 | 0.74 | 0.82
PRELID3B | 0.15 | 0.42 | 0.03 | -0.01
NKAIN3 | 0.69 | 0.75 | 0.95 | 0.37
DPH6 | -0.76 | -0.84 | -0.53 | -0.9
GPD1L | 0.67 | 0.48 | 0.5 | 1.04
TLE1 | 0.08 | -0.09 | 0.21 | 0.12
OR3A1 | 0.6 | 0.87 | 0.3 | 0.64
HIF1AN | 0.7 | 0.55 | 0.8 | 0.73
P4HA2 | 0.82 | 0.5 | 0.84 | 1.11
POU2F1 | -0.6 | -0.56 | -0.63 | -0.6
CDC37 | 0.95 | 0.82 | 0.82 | 1.22
DBI | 0.44 | 0.25 | 0.69 | 0.37
CYTL1 | 0.09 | 0.03 | 0.16 | 0.07
SULT1B1 | 0.87 | 0.83 | 0.97 | 0.8
ANKRD26P1 | -0.82 | -0.53 | -0.99 | -0.94
SUCLG2 | -0.64 | -0.6 | -0.52 | -0.8
CYP4A11 | 0.27 | 0.68 | 0.05 | 0.08
PRR22 | -0.72 | -0.8 | -0.92 | -0.44
PADI2 | -1.55 | -1.42 | -1.65 | -1.57
CST4 | 0 | 0.11 | -0.35 | 0.25
GABRG3 | 0.56 | 0.79 | 0.48 | 0.42
TOMM20L | 1.01 | 0.61 | 1.32 | 1.11
DUSP26 | 0.48 | 0.61 | 0.3 | 0.54
LINC02551 | -1.31 | -1.08 | -1.36 | -1.49
TASL | 0.55 | 0.9 | 0.39 | 0.38
MATN1 | 0.41 | 0.24 | 0.46 | 0.55
RGS9 | 0.15 | 0.4 | -0.27 | 0.33
AKR1C3 | -1.45 | -1.21 | -1.41 | -1.71
LINC00921 | -0.61 | -0.42 | -0.54 | -0.88
LRRC38 | -0.81 | -1.08 | -0.62 | -0.73
FAN1 | -0.1 | 0.02 | -0.35 | 0.03
DENND10P1 | 2.73 (active) | 2.9 | 3.01 | 2.27
RAD51 | 1.77 | 1.49 | 1.77 | 2.05
OR2B11 | -0.27 | 0.11 | -0.32 | -0.59
MCAT | -0.06 | -0.15 | 0.07 | -0.11
LOC402670 (retired record) | -0.54 | -0.49 | -0.81 | -0.32
SLC25A19 | 0.24 | 0.49 | 0.03 | 0.21
GRIP2 | 0.56 | 0.36 | 0.46 | 0.86
DDI1 | -0.16 | -0.38 | 0.36 | -0.47
TM7SF2 | 0.51 | 0.2 | 0.42 | 0.9
FLT3 | -0.39 | -0.41 | -0.51 | -0.27
EAF1 | -0.97 | -1.36 | -1.21 | -0.35
MS4A1 | 0.41 | 0.23 | 0.51 | 0.48
MTFR1 | -0.47 | -0.53 | -0.38 | -0.49
NXPE2 | 0.54 | 0.67 | 0.81 | 0.14
LINC00839 | -0.07 | -0.06 | -0.26 | 0.1
SEC62 | 2.75 (active) | 2.68 | 3.11 | 2.45
TUT1 | 1.14 | 1.4 | 0.66 | 1.37
ZNF665 | 1.15 | 0.91 | 1.52 | 1.01
CEP295 | -0.95 | -0.75 | -0.84 | -1.27
PODN | 0.78 | 0.99 | 0.74 | 0.6
GGTLC1 | 1.74 | 1.24 | 1.83 | 2.16
GOLPH3 | -0.47 | -0.85 | -0.47 | -0.1
GZMM | 2.1 (active) | 1.88 | 2.1 | 2.33
MTA2 | -0.79 | -0.64 | -0.65 | -1.1

Records listed so far called active:
gene | mean z-score | z-score, replicate A | z-score, replicate B | z-score, replicate C
DENND10P1 | 2.73 (active) | 2.9 | 3.01 | 2.27
SEC62 | 2.75 (active) | 2.68 | 3.11 | 2.45
GZMM | 2.1 (active) | 1.88 | 2.1 | 2.33
